Test system: SARS-CoV-2 S1 pseudovirus
Test: SARS-CoV-2 S1 pseudovirus infection of ACE2-expressing HEK293T cells (DsRed)
Conditions: ACE2-overexpressing HEK293T cells
Description: During infection, increased SOCE and Orai1 activity leads to greater phosphorylation of Ca^2+-sensitive kinases (e.g., calcineurin) and activation of transcription factors (e.g., NFAT) leading to a pro-inflammatory response. […] The results were normalized to the baseline. Thapsigargin (Tg) at 1 µM was used as control. The inhibition of Ca^2+ release after scaffold peptide (ELD100; reference) addition is shown for comparison. […] The results were normalized to the baseline. Thapsigargin (Tg) at 1 µM was used as control. The inhibition of Ca^2+ release after ELD100 (reference) addition is shown for comparison. […] The results were normalized to the baseline. Thapsigargin (Tg) at 1 µM was used as control. The inhibition of Ca^2+ release after ELD100 (reference) addition is shown for comparison. […] The results were normalized to the baseline. Thapsigargin (Tg) at 1 µM was used as control. The inhibition of Ca^2+ release after ELD100 (reference) addition is shown for comparison. […] 1 h later, thapsigargin was added and the change in Fluo-4 fluorescence was measured. […] HEK293T cells were transfected with anti-Orai1 shRNA for 48 h and the change in Fluo4 fluorescence was measured. […] FIG. 16G panels B and C show plots showing fluorescence intensities of Orai1 in macrophages and neutrophils, respectively. *** p<0.001 different as indicated. […]

Substance	pseudovirus infection (DsRed fluorescence)
a-HDIVNMLIH-a	inhibited viral replication
n-VHDIVNMLIHG-n	inhibited viral replication

Source: patent publication EP4314010B1, “MODIFIED PEPTIDOMIMETICS AND METHODS OF USE” (dated 2026)
